A mixed list of measured activities; the numbers were collected in NIAID ChemDB.

Shared fields: host cell toxicity; cell line: MCF-7; read-out: CC50

CCn is the concentration with n% toxicity to the cells. Blank or dashed fields: not listed here. Rows are shuffled and stem from different studies.

SMILES,method,result
CC(C)C12C=C3CC[C@H]4[C@](C)(C(=O)O)CCC[C@]4(C)[C@]3(CC1)OO2,absorbance,28.4 µg/mL
COC(=O)/C(C)=C/C=C/[C@@H](C)[C@H]1CC[C@@]2(C)C3CC[C@H]4C(C)(C)C(=O)CC[C@]4(C)[C@@]3(O)CC[C@]12C,,>40 µM
C=C[C@]1(C)C=C2C(=O)c3c(NC=O)cccc3C(C)(C)[C@H]2C[C@H]1O,,>100 µM
CCCCCC1CC(O)CC(=O)O1,MTT,1600 µg/mL
CCCCC[C@@H]1OC(=O)CNC(=O)[C@H]([C@@H](C)CC)NC(=O)[C@@H]2CCCN2C(=O)[C@H]([C@@H](C)CC)OC(=O)[C@H](Cc2ccccc2)N(C)C(=O)[C@H](C(C)C)NC(=O)C1(C)C,MTT,73 µM
C[C@H]1[C@H](O)C(=O)CC2[C@]3(C)CC[C@@]4(C)C5CC(C)(C)CC[C@]5(C)CC[C@]4(C)C3CC[C@@]21C,sulforhodamine / absorbance,>50 µM
O=c1[nH]c(=O)n([C@H]2C[C@H](O)[C@@H](CO)O2)cc1C12B3B4B5B6B(B3B1B42)B1B5C61,,>100 µM
C/C(=C\C=C\C(C)[C@H]1CC[C@@]2(C)[C@@H]3CC[C@H]4C(C)(C)C(=O)CC[C@]4(C)C3=CC[C@]12C)C(=O)O,sulforhodamine / absorbance,>50 µM
C/C=C/c1ccc2c(c1)[C@H](C)[C@@H](c1ccc(OC)c(OC)c1)O2,sulforhodamine / absorbance,39.5 µM
Cc1cc(NS(=O)(=O)c2ccc(N3C(=O)CSC3c3c(Cl)cccc3Cl)cc2)no1,MTT,>100 µg/mL
O=C1c2c(O)cc(O)cc2O[C@@H](c2ccc(O)cc2)[C@@H]1c1c(O)cc(O)c2c(=O)cc(-c3ccc(O)c(O)c3)oc12,sulforhodamine / absorbance,>50 µM
C#CCCC[C@@H]1OC(=O)CNC(=O)[C@H]([C@@H](C)CC)NC(=O)[C@@H]2CCCN2C(=O)[C@H]([C@@H](C)CC)OC(=O)[C@H](Cc2ccccc2)NC(=O)[C@H](C(C)C)NC(=O)C1(C)C,MTT,>100 µM
CC(C)=CC[C@H]1C[C@@]2(C[C@H]3CCC(C)(C)C=C3C)C(=O)[C@](C(=O)c3ccccc3)(C(=O)C3=C2OC(C)(C)CC3)C1(C)C,sulforhodamine / absorbance,>50 µM
COC(=O)/C(C)=C/C=C/[C@@H](C)C1CC[C@@]2(C)[C@@H]3CC[C@H]4C(C)(C)C(=O)CC[C@]4(C)C3=CC[C@]12C,,>40 µM
COc1cc(-c2ccccc2)c(O)c(OC)c1O,sulforhodamine / absorbance,>50 µM
CC(=O)OC1C(COC(=O)/C=C/c2ccc(O)cc2)OC(COC(=O)/C=C/c2ccc(O)cc2)(OC2OC(COC(=O)/C=C/c3ccc(O)cc3)[C@@H](OC(C)=O)[C@H](O)[C@H]2O)C1OC(=O)/C=C/c1ccc(O)cc1,MTT,2.87 µg/mL
Cc1cc(NS(=O)(=O)c2ccc(N3C(=O)CSC3c3c(F)cccc3F)cc2)no1,MTT,>100 µg/mL
C/C(=C\C=C\[C@@H](C)[C@H]1CC[C@@]2(C)C3CC[C@H]4C(C)(C)C(=O)CC[C@]4(C)[C@@]3(O)[C@@H](O)C[C@]12C)C(=O)O,,>40 µM

2 of the rows above, restated:

SMILES	method	result
O=c1[nH]c(=O)n([C@H]2C[C@H](O)[C@@H](CO)O2)cc1C12B3B4B5B6B(B3B1B42)B1B5C61		>100 µM
Cc1cc(NS(=O)(=O)c2ccc(N3C(=O)CSC3c3c(F)cccc3F)cc2)no1	MTT	>100 µg/mL